Measured values from several laboratories, pooled; numbers as filed in NIAID ChemDB.

CCn is the concentration with n% toxicity to the cells.

O=C(O)/C=C/c1ccc(CN2CCCC(NC(=O)c3ccc4c(c3)nc(-c3ccoc3)n4C3CCCCC3)C2)cc1 ; test: target ; agent: Poliovirus ; target: RNA-dependent RNA polymerase ; endpoint: IC50 ; value: >25 µM
Cn1cc(NC(=O)c2cc(NC(=O)CN=C(N)N)cn2C)c(C(=O)NCCC(=N)N)c1 ; test: culture ; agent: Vaccinia virus ; strain or isolate: Noguchi ; cells: BSC-1 ; endpoint: inhibition ; tested at: 10 µg/mL ; value: 0%
COc1ccc(C(NC(=O)c2ccc3c(c2)nc(-c2ccoc2)n3[C@@H]2CCCC[C@H]2O)C(=O)O)cc1OC ; test: target ; agent: Poliovirus ; target: RNA-dependent RNA polymerase ; endpoint: IC50 ; value: >25 µM
Clc1ccc(C2CCc3ccccc3O2)c(Cl)c1 ; test: culture ; agent: Poliovirus ; strain or isolate: SABIN (TYPE 2) ; cells: HEP-2 ; endpoint: EC50 ; value: >10 µM
CC/C(=C\c1cccc(NC(=O)c2ccc3c(c2)nc(-c2ccoc2)n3C2CCCCC2)c1)C(=O)O ; test: target ; agent: Poliovirus ; target: RNA-dependent RNA polymerase ; endpoint: IC50 ; value: >25 µM
Clc1ccc(C2=Cc3ccccc3OC2)cc1 ; test: culture ; agent: Poliovirus ; strain or isolate: IB (TYPE 2) ; cells: HEP-2 ; endpoint: EC50 ; value: >10 µM
O=C(N[C@H](C(=O)O)c1c[nH]c2ccc(O)cc12)c1ccc2c(c1)nc(Cc1ccccc1)n2C1CCCCC1 ; test: target ; agent: Poliovirus ; target: RNA-dependent RNA polymerase ; endpoint: IC50 ; value: >25 µM
C=CCN1C(=O)CS/C1=N/N=C1\C(=O)Nc2ccc([N+](=O)[O-])cc21 ; test: culture ; agent: Yellow fever virus ; cells: VERO ; endpoint: EC50 ; value: 2.18 µg/mL
NC(=O)c1csc([C@@H]2O[C@H](CO)[C@@H](O)[C@H]2O)n1 ; test: culture ; agent: Variola virus ; strain or isolate: Isolate Bangladesh ; cells: VERO ; endpoint: EC50 ; value: 22.6 µg/mL
C[C@@H]1CCC[C@@H](C)C1n1c(-c2ccoc2)nc2cc(C(=O)N[C@@H](Cc3c[nH]c4ccc(O)cc34)C(=O)O)ccc21 ; test: target ; agent: Poliovirus ; target: RNA-dependent RNA polymerase ; endpoint: IC50 ; value: >25 µM
Clc1ccc2c(c1)CC(c1ccccc1)CO2 ; test: culture ; agent: Poliovirus ; strain or isolate: TYPE 2 ; cells: HEP-2 ; endpoint: inhibition ; tested at: 10 µM ; value: 30%
O=C1Nc2ccc([N+](=O)[O-])cc2/C1=N/N=C1/SCC(=O)N1C1CCCCC1 ; test: culture ; agent: Yellow fever virus ; cells: VERO ; endpoint: EC50 ; value: 1.96 µg/mL
Nc1ncnc2c1nc(Cl)n2[C@@H]1O[C@H](CO)[C@@H](O)[C@H]1O ; test: toxicity ; cells: C1271 ; endpoint: CC50 ; value: 45 µM
O=C(O)c1cccc(NC(=O)N2CCC(NC(=O)c3ccc4c(c3)nc(-c3ccoc3)n4C3CCCCC3)CC2)c1 ; test: target ; agent: Poliovirus ; target: RNA-dependent RNA polymerase ; endpoint: IC50 ; value: >25 µM
CC(C)(C)OC(=O)N1CC(N)C(C(=O)O)C1 ; test: target ; agent: Influenza A virus ; strain or isolate: A/TOKYO/67 ; target: Neuraminidase ; endpoint: IC50 ; value: 58 µM
COc1ccc([C@H](NC(=O)c2ccc3c(c2)nc(-c2ccoc2)n3C2CCCCC2)C(=O)O)cc1OC ; test: target ; agent: Poliovirus ; target: RNA-dependent RNA polymerase ; endpoint: IC50 ; value: >25 µM
Nc1nc(=O)n([C@@H]2O[C@H](CO)[C@@H](O)[C@@H]2O)cc1F ; test: toxicity ; cells: C1271 ; endpoint: CC50 ; value: 0.3 µM
O=C(O)Cn1cnc(C[C@H](NC(=O)c2ccc3c(c2)nc(-c2ccoc2)n3C2CCCCC2)C(=O)O)c1 ; test: target ; agent: Poliovirus ; target: RNA-dependent RNA polymerase ; endpoint: IC50 ; value: >25 µM
Nc1ccn(C[C@H]2COP(=O)(O)CO2)c(=O)n1 ; test: culture ; agent: Variola virus ; strain or isolate: Isolate V70-222 ; cells: VERO ; endpoint: EC50 ; value: 23 µg/mL
Nc1nc(=O)n([C@@H]2C=C(CO)[C@@H](O)[C@H]2O)cc1F ; test: culture ; agent: Monkeypox virus ; strain or isolate: MPX ; cells: VERO ; endpoint: EC50 ; value: 2.05 µg/mL
Cn1cc(NC(=O)c2cc(NC(=O)c3cc(NC=O)cn3C)cn2C)cc1C(=O)NCCC(=N)N ; test: culture ; agent: Vaccinia virus ; strain or isolate: Noguchi ; cells: BSC-1 ; endpoint: inhibition ; tested at: 75 µg/mL ; value: 100%
O=c1[nH]cnc2c1ncn2[C@@H]1C=C(CO)[C@@H](O)[C@H]1O ; test: toxicity ; cells: VERO ; endpoint: CC50 ; value: >100 µg/mL
CCCCCCCCCCCCCCCCCC(=O)OC[C@@H](COP(=O)(O)OCCNCCO[C@@]1(C(=O)O)O[C@@H]([C@H](O)[C@H](O)CO)[C@H](NC(C)=O)[C@@H](O)[C@H]1F)OC(=O)CCCCCCCCCCCCCCCCC ; test: target ; agent: Influenza A virus ; strain or isolate: H1N1 A/DUCK/HK/36/76 ; target: Sialidase ; endpoint: IC50 ; value: 62.5 µM
O=C(O)c1ccc2c(c1)nc(/C=C/c1ccccc1)n2C1CCCCC1 ; test: target ; agent: Poliovirus ; target: RNA-dependent RNA polymerase ; endpoint: IC50 ; value: >25 µM
Brc1ccc(C2=Cc3ccccc3OC2)cc1 ; test: culture ; agent: Poliovirus ; strain or isolate: IA (TYPE 2) ; cells: HEP-2 ; endpoint: EC50 ; value: >10 µM
Nc1ccn(C[C@@H](CO)OCP(=O)(O)O)c(=O)n1 ; test: culture ; agent: Variola virus ; strain or isolate: Isolate Heidelberg ; cells: VERO ; endpoint: EC50 ; value: 15 µg/mL
CC(C)n1c(-c2ccoc2)nc2cc(C(=O)N[C@@H](Cc3c[nH]c4ccc(O)cc34)C(=O)O)ccc21 ; test: target ; agent: Poliovirus ; target: RNA-dependent RNA polymerase ; endpoint: IC50 ; value: >25 µM
Cc1cn([C@@H]2O[C@H](CO)[C@@H](O)[C@@H]2O)c(=O)[nH]c1=O ; test: toxicity ; cells: VERO ; endpoint: CC50 ; value: >1000 µM
CCN(C(=O)C1CC(C(=O)O)C(N)C1CNC(C)=O)C(C)C ; test: target ; agent: Influenza A virus ; strain or isolate: A/TOKYO/67 ; target: Neuraminidase ; endpoint: Ki ; value: 24 µM
Nc1nc(=O)n([C@@H]2O[C@H](CO)[C@@H](O)[C@@H]2F)cc1I ; test: toxicity ; cells: C1271 ; endpoint: CC50 ; value: 118 µM
CCN(C(=O)N1C[C@@H](N)[C@@H](C(=O)O)C1)C(C)C ; test: target ; agent: Influenza A virus ; strain or isolate: A/TOKYO/67 ; target: Neuraminidase ; endpoint: IC50 ; value: 0.5–57 µM
CC(=O)Nc1ncc([C@H](Cc2ccc(O)cc2)NC(=O)c2ccc3c(c2)nc(-c2ccoc2)n3C2CCCCC2)[nH]1 ; test: target ; agent: Poliovirus ; target: RNA-dependent RNA polymerase ; endpoint: IC50 ; value: >25 µM
CCCCCCCCCCCCCCCCCC(=O)OC[C@@H](COP(=O)(O)OCCNCCO[C@@]1(C(=O)O)O[C@@H]([C@H](O)[C@H](O)CO)[C@H](NC(C)=O)[C@@H](O)[C@H]1F)OC(=O)CCCCCCCCCCCCCCCCC ; test: target ; agent: Influenza A virus ; strain or isolate: H11N3 A/DUCK/44/3/76 ; target: Sialidase ; endpoint: IC50 ; value: 250 µM
CC(=O)NC(CC(C)C)C1NC(C(=O)[O-])CC1N ; test: target ; agent: Influenza A virus ; strain or isolate: A/TOKYO/67 ; target: Neuraminidase ; endpoint: Ki ; value: 6.2 µM
CCCCCCCCCCCCC/C=C/[C@@H](O)[C@H](CO[C@@H]1O[C@H](CO)[C@H](O)[C@H](OS(=O)(=O)O)[C@H]1O)NC(=O)CCCCCCCCCCCCCCCCCCCCCCC ; test: target ; agent: Influenza A virus ; strain or isolate: H4N6 A/mallard/Alberta/25/85 ; target: Sialidase ; endpoint: inhibition ; tested at: 200 µM ; value: 89.3%
O=C(N[C@@H](Cc1c[nH]c2ccc(O)cc12)C(=O)O)c1ccc2c(c1)nc(-c1ccoc1)n2C1CCCCC1 ; test: target ; agent: Poliovirus ; target: RNA-dependent RNA polymerase ; endpoint: IC50 ; value: >25 µM

4 of the rows above, restated:

smiles | test | agent | strain or isolate | cells | target | endpoint | tested at | value
C[C@@H]1CCC[C@@H](C)C1n1c(-c2ccoc2)nc2cc(C(=O)N[C@@H](Cc3c[nH]c4ccc(O)cc34)C(=O)O)ccc21 | target | Poliovirus | - | - | RNA-dependent RNA polymerase | IC50 | - | >25 µM
NC(=O)c1csc([C@@H]2O[C@H](CO)[C@@H](O)[C@H]2O)n1 | culture | Variola virus | Isolate Bangladesh | VERO | - | EC50 | - | 22.6 µg/mL
Nc1nc(=O)n([C@@H]2O[C@H](CO)[C@@H](O)[C@@H]2O)cc1F | toxicity | - | - | C1271 | - | CC50 | - | 0.3 µM
O=C(O)c1cccc(NC(=O)N2CCC(NC(=O)c3ccc4c(c3)nc(-c3ccoc3)n4C3CCCCC3)CC2)c1 | target | Poliovirus | - | - | RNA-dependent RNA polymerase | IC50 | - | >25 µM

Percent inhibition refers to the dose given; in toxicity tests it is the harm to the cells. Blank or dashed fields: not listed here. ICn is the concentration giving n% inhibition. ECn: concentration that inhibits the pathogen or its effect by n%. Lines come from different laboratories, so protocols vary. a–b is a range or a potency band.